Source: ChEMBL document CHEMBL3988442, “University of Dundee, Small-Polar-MMV Screening Library” (2021).

Each number is a percent effect as filed. The controls that fix the scale are not given in the record; negative values are as filed. Many other results are left out here, so strong results are more common than in the screen.

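Phenotypic screen: M. tuberculosis growth, glucose 7H9 medium, 3 days; the read-out is not stated. Concentration: 500 µM. Direction is inferred from retests: higher values go with more growth inhibition. Size under these conditions: about 18,000 compounds, about 1,400 of them at 50% or above in at least one test.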

COc1ccc(C)cc1NC(=O)Cn1ccnc1 read 38.48%.
CCNC(=O)c1cc(N2CCC(O)CC2)ccn1 read 14.96%.
CCCOC1CCCN(C(=O)CCn2cnnn2)C1 (stereo not given) read 8.208%.
Cc1csc(N2CCN(C(=O)c3scnc3C)CC2)n1 read 33.72%.
NCc1cccc(-c2ccncc2)c1 read 33.68%.
C[C@H](NC(=O)CSCc1ccccc1Cl)C(N)=O read 18.76%.
COc1cccc(NC(=O)NCCN(C)C(C)C)c1 read 9.391%.
O=C1CCC(C(=O)NCC(CO)Cc2cccs2)=NN1 (stereo not given) read 17.26%.
CCc1ccccc1CN1C(=O)CCC1=O read 57.76%.
Cc1nc(CN2CCCSCC2)oc1C read 26.83%.
OCCOc1ccc(CNC2CC2)cc1 read 11.19%.
CC(c1cc(F)ccc1F)N(C)C(=O)CCCN (stereo not given) read -0.6615%.
C=C(C)CNC(=O)NCCn1c(=O)oc2ccccc21 read -13.1%.
O=C(NC1CCCc2ccccc21)c1ccncc1 (stereo not given) read 73.78%.
CN(C1(C#N)CCC1)S(=O)(=O)c1cccs1 read 60.85%.
CN(CCn1cccn1)CC(=O)Nc1ccc(Br)cn1 read 45.99%.
COC(=O)CN(Cc1ccccc1)C(=O)N(C)C read -2.251%.
Cn1cc(C(=O)NC2CCS(=O)(=O)C2)c2ccccc21 (stereo not given) read 9.211%.
COc1ccnc(NCc2ccco2)n1 read 36.58%.
CC(C)Cn1ccnc1CNc1ncccc1F read 63.13%.
CS(=O)(=O)N1CCC(=Cc2ccccc2)CC1 read -12.11%.
CC(C)(C)C(=O)N1CCCN2CCCC2C1 (stereo not given) read -3.017%.
CCOC(=O)c1cccnc1NCc1cnn(C)c1C read 64.5%.
C=C(Br)Cn1c(CO)nc2ccccc21 read 35.34%.
CC(=O)N1CCC(NC(=O)Cc2ccccc2C)CC1 read 9.777%.
O=C(NCC1CCCNC1)OCc1ccccc1 (stereo not given) read 20.23%.
CCCn1ccnc1CNC(=O)C(O)CCSC (stereo not given) read -11.46%.
CN(C)c1cc(CNC(=O)c2cnn(C)c2)ccn1 read 17.8%.
Cc1cc(CN(C)C(=O)c2c(C)nn(C)c2Cl)no1 read -5.559%.
CN(CCC#N)C(=O)COC(=O)c1ccccc1Br read 51.27%.
CN1CN(C(=O)c2ccc(Br)cc2Cl)CC1=O read 11.48%.
CC(=O)N1CCN(Cc2cc(Br)c3c(c2)OCO3)CC1 read 57.89%.
CNC(=O)CNC(=O)c1ccccc1O read -9.316%.
CC(C)(C)OC(=O)N1CCN(c2ccc(N)nc2)CC1 read 41.7%.
O=C(C1CCC1)N1CCc2ccc(O)cc2C1 read 48.98%.
CSCCCN(C)C(=O)CN(C)S(C)(=O)=O read 5.226%.
CC[C@H](C)[C@H](NC(N)=O)C(=O)Nc1ccccc1F read -15.11%.
CCC(=O)c1cccc(S(=O)(=O)NC(CN)C2CC2)c1 (stereo not given) read 56.09%.
COc1ccccc1C1(N)CCC1 read 4.995%.
CN(CC(=O)Nc1cnc2ccccc2c1)S(C)(=O)=O read 0.953%.
COc1ccc(CC2CCN2)cc1 (stereo not given) read 79.99%.
COc1ccc(NC(=O)NC2CCS(=O)(=O)C2)cn1 (stereo not given) read -44.06%.
CN(Cc1nccn1C1CC1)CC1(C)COC1 read 8.357%.
CCC(C(=O)NCc1nnc2n1CCC2)n1cccn1 (stereo not given) read -4.186%.
CCNC(=O)c1csc(N2CCCC(C)C2)n1 (stereo not given) read 46.68%.
CCC1COCCN1C(=O)CN1Cc2ccccc2C1 (stereo not given) read 9.366%.
CNC(=O)CCNC(=O)c1sc2ccccc2c1C read 39.01%.
COCCn1cc(CNC(=O)NCc2cccs2)cn1 read -2.061%.
Cc1cc(C)n(C(C)C(=O)NCCS(=O)(=O)N(C)C)n1 (stereo not given) read 16.43%.
CCOc1ccc(C(=O)NC2(C)CCS(=O)(=O)C2)cn1 (stereo not given) read 19.82%.

Some entries from above, unchanged:

{"compound": "Cc1csc(N2CCN(C(=O)c3scnc3C)CC2)n1", "Percent Effect": 33.72}
{"compound": "Cc1nc(CN2CCCSCC2)oc1C", "Percent Effect": 26.83}
{"compound": "CCC(C(=O)NCc1nnc2n1CCC2)n1cccn1", "stereo": "stereo not given", "Percent Effect": -4.186}
{"compound": "CN1CN(C(=O)c2ccc(Br)cc2Cl)CC1=O", "Percent Effect": 11.48}
{"compound": "CS(=O)(=O)N1CCC(=Cc2ccccc2)CC1", "Percent Effect": -12.11}